Results: PMC9270327 (Communications Biology, 2022)

Sequences of proteins named here, by UniProt entry; tags and fusion partners are left off. Residues count along the entry.
UniProt Q9Y5Y6, whole entry: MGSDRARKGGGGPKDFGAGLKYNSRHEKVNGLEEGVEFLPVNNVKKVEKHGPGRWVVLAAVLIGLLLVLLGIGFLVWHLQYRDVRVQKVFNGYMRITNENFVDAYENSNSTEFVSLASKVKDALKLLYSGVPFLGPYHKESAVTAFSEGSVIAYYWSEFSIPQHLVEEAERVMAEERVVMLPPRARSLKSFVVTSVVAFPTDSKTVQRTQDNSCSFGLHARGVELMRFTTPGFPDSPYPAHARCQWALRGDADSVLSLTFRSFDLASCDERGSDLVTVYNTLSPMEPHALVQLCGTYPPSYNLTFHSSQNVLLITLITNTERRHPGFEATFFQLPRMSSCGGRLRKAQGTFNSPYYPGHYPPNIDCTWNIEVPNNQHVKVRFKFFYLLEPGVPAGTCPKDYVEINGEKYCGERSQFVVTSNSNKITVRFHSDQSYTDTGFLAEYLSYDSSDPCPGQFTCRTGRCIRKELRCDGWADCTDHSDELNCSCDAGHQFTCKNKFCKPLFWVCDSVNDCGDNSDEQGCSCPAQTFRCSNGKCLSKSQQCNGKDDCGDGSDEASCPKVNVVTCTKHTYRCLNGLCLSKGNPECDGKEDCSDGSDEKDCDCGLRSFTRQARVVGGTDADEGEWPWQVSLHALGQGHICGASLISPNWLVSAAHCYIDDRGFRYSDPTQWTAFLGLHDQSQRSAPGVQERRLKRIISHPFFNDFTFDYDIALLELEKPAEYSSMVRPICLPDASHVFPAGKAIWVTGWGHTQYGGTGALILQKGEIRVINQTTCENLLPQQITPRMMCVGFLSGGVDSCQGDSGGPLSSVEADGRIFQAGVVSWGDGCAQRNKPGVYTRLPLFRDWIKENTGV
UniProt P00742, 235-488 limits assumed: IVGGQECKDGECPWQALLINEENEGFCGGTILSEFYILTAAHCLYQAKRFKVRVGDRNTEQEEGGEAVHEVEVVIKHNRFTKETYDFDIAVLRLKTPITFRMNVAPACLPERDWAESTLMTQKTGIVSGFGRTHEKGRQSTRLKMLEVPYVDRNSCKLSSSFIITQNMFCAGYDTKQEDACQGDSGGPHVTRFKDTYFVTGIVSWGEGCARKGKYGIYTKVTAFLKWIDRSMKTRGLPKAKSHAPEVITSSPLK
UniProt P00742, 41-179 partner limits assumed: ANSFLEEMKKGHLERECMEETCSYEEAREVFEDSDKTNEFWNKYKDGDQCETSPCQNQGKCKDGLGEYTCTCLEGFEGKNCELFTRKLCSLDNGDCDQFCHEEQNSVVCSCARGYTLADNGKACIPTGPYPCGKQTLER
UniProt O15393, whole entry: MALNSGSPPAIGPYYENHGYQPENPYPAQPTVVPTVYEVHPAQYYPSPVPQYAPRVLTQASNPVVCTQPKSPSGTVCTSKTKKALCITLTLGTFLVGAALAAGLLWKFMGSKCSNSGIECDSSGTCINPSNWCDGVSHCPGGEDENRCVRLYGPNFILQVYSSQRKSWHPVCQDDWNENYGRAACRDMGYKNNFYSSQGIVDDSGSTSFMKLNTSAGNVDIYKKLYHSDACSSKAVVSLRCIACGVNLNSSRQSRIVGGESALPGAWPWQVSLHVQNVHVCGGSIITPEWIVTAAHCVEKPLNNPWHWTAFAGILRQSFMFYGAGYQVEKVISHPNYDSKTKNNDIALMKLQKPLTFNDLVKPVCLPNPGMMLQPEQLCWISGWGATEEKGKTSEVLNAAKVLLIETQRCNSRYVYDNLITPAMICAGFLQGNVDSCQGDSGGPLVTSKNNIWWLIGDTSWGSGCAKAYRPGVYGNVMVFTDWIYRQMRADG

Columns and labels:
[1] = biological target: recombinant human matriptase (Homo sapiens, UniProt Q9Y5Y6); experiment: Enzyme inhibition assay with purified matriptase (Ki, dose-response); assay type: biochemical; conditions: for Selectivity index Matriptase: quotient Ki matriptase / Ki TMPRSS2; for Ki: read-out: Ki Matriptase, 30 min preincubation, substrate Boc-Gln-Ala-Arg-AMC
[2] = biological target: recombinant human thrombin (Homo sapiens, UniProt P00734); experiment: Enzyme inhibition assay with purified thrombin (Ki, dose-response); assay type: biochemical; conditions: for Selectivity index Thrombin: quotient Ki thrombin / Ki TMPRSS2; for Ki: read-out: Ki Thrombin, 30 min preincubation, substrate D-Phe-Homopro-Arg-pNA
[3] = biological target: factor Xa (Homo sapiens, UniProt P00742); experiment: Enzyme inhibition assay with purified factor Xa (Ki, dose-response); assay type: biochemical; conditions: for factor Xa activity, Mean (Fig. 2d): normalized, 0 nM = 100; for Selectivity index Factor Xa: quotient Ki factor Xa / Ki TMPRSS2; for Ki: read-out: Ki Factor Xa, 30 min preincubation, substrate Bz-Ile-Glu-Gly-Arg-pNA
[4] = test system: lentiviral pseudoparticles carrying SARS-CoV-2 Wuhan-Hu-1 spike, Caco-2 cells; experiment: Pseudovirus inhibition assay, wild-type (Wuhan-Hu-1) spike; conditions: for SARS-CoV-2 spike driven entry, Mean (0 nM = 100): Fig. 5a, Wuhan-Hu-1 spike pseudoparticles; for IC50: read-out: IC50 pseudotyped lentivirus Wuhan-Hu-1, Caco-2 cells, luciferase 2 days post transduction
[5] = test system: SARS-CoV-2 Wuhan-Hu-1, Caco-2 cells; experiment: SARS-CoV-2 inhibition assay, Wuhan-Hu-1 (in-cell ELISA); conditions: for SARS-CoV-2 infection, Mean (0 nM = 100): Fig. 6a, Wuhan-Hu-1; for IC50: read-out: IC50 SARS-CoV-2 Wuhan-Hu-1, Caco-2 cells, in-cell ELISA 2 days post infection
[6] = biological target: TMPRSS2 (Homo sapiens, UniProt O15393); conditions: for TMPRSS2 activity, Mean (Fig. 2a): normalized, 0 nM = 100; for Ki: read-out: Ki TMPRSS2, 30 min preincubation, substrate Boc-Gln-Ala-Arg-AMC, Ki from IC50 by Cheng–Prusoff

Structure (SMILES)	Selectivity index Matriptase [1]	Ki [1]	Ki [2]	factor Xa activity, Mean (Fig. 2d) ([3]; 0.04 nM)	factor Xa activity, Mean (Fig. 2d) ([3]; 0.2 nM)	factor Xa activity, Mean (Fig. 2d) ([3]; 2 nM)	factor Xa activity, Mean (Fig. 2d) ([3]; 20 nM)	factor Xa activity, Mean (Fig. 2d) ([3]; 200 nM)	factor Xa activity, Mean (Fig. 2d) ([3]; 10000 nM)	Selectivity index Factor Xa [3]	Ki [3]	SARS-CoV-2 spike driven entry, Mean (0 nM = 100) ([4]; compound 32 nM)	SARS-CoV-2 spike driven entry, Mean (0 nM = 100) ([4]; compound 160 nM)	SARS-CoV-2 spike driven entry, Mean (0 nM = 100) ([4]; compound 800 nM)	SARS-CoV-2 spike driven entry, Mean (0 nM = 100) ([4]; compound 4000 nM)	SARS-CoV-2 spike driven entry, Mean (0 nM = 100) ([4]; compound 20000 nM)	SARS-CoV-2 infection, Mean (0 nM = 100) ([5]; compound 32 nM)	SARS-CoV-2 infection, Mean (0 nM = 100) ([5]; compound 160 nM)	SARS-CoV-2 infection, Mean (0 nM = 100) ([5]; compound 800 nM)	SARS-CoV-2 infection, Mean (0 nM = 100) ([5]; compound 4000 nM)	also measured
CC(=O)N[C@H](CCCNC(=N)N)C(=O)N1CCC[C@H]1C(=O)NC(CCCNC(=N)N)C(=O)c1nc2ccccc2s1 (stereo partly drawn)	0.02	1.7 nM	2080 nM	111.644	99.8476	73.2113	29.8323	14.9163	11.1111	0.05	4.1 nM	78.723	80.304	56.218	38.324	7.149	97.3498	98.8884	101.772	107.393	selectivity for matriptase (over TMPRSS2) [1]: ~ 51 fold; Selectivity index Thrombin [2]: 24; factor Xa activity, Mean (Fig. 2d) ([3]; 0.02 nM): 114.307; factor Xa activity, Mean (Fig. 2d) ([3]; 100000 nM): 5.175; IC50 [4]: 1200 nM; SARS-CoV-2 infection, Mean (0 nM = 100) ([5]; compound 20000 nM): 38.1857; IC50 [5]: 18900 nM; TMPRSS2 activity, Mean (Fig. 2a) ([6]; 0.05 nM): 103.987; TMPRSS2 activity, Mean (Fig. 2a) ([6]; 0.5 nM): 106.22; TMPRSS2 activity, Mean (Fig. 2a) ([6]; 5 nM): 106.858; TMPRSS2 activity, Mean (Fig. 2a) ([6]; 50 nM): 82.6156; TMPRSS2 activity, Mean (Fig. 2a) ([6]; 500 nM): 26.3158; TMPRSS2 activity, Mean (Fig. 2a) ([6]; 5000 nM): 3.509; TMPRSS2 activity, Mean (Fig. 2a) ([6]; 50000 nM): 0.1595; TMPRSS2 activity, Mean (Fig. 2a) ([6]; 500000 nM): 0.1595; Ki [6]: 86.7 nM
CC(=O)N[C@@H](CCCNC(=N)N)C(=O)N1CCC[C@H]1C(=O)N[C@@H](CCCNC(=N)N)C(=O)c1nc2ccccc2s1		6.2 nM																			
CC(=O)N[C@H](CCCNC(=N)N)C(=O)N[C@H](C(=O)NC(CCCNC(=N)N)C(=O)c1nc2ccccc2s1)[C@@H](C)O (stereo partly drawn)	0.7	160 nM	> 50000 nM	109.206	106.498	117.148	107.582	91.154	13.7184	4.5	966 nM	87.6125	81.262	81.4485	62.251	24.318	95.2974	99.2923	101.216	99.5295	factor Xa activity, Mean (Fig. 2d) ([3]; 0.02 nM): 106.859; factor Xa activity, Mean (Fig. 2d) ([3]; 100000 nM): 8.123; IC50 [4]: 5600 nM; SARS-CoV-2 infection, Mean (0 nM = 100) ([5]; compound 20000 nM): 64.5689; IC50 [5]: 24500 nM; TMPRSS2 activity, Mean (Fig. 2a) ([6]; 0.05 nM): 98.7678; TMPRSS2 activity, Mean (Fig. 2a) ([6]; 0.5 nM): 95.9242; TMPRSS2 activity, Mean (Fig. 2a) ([6]; 5 nM): 93.9336; TMPRSS2 activity, Mean (Fig. 2a) ([6]; 50 nM): 87.3934; TMPRSS2 activity, Mean (Fig. 2a) ([6]; 500 nM): 52.3223; TMPRSS2 activity, Mean (Fig. 2a) ([6]; 5000 nM): 9.668; TMPRSS2 activity, Mean (Fig. 2a) ([6]; 50000 nM): 0.5687; TMPRSS2 activity, Mean (Fig. 2a) ([6]; 500000 nM): -1.896e-7; Ki [6]: 216 nM
CC(=O)N[C@@H](CCCNC(=N)N)C(=O)N1CCC[C@H]1C(=O)N[C@H](CCCNC(=N)N)C(=O)c1nc2ccccc2s1		0.9 nM																			
CC(=O)N[C@H](CCCNC(=N)N)C(=O)N1CCCC[C@H]1C(=O)NC(CCCNC(=N)N)C(=O)c1nc2ccccc2s1 (stereo partly drawn)	1.1	75.6 nM	> 50000 nM	103.976	102.585	94.8313	97.0174	61.6292	26.2426	6.6	472 nM	83.6765	86.282	83.5365	76.3675	35.339	92.1368	91.3329	91.1132	95.0286	Selectivity index Thrombin [2]: > 699; SARS-CoV-2 infection, Mean (0 nM = 100) ([5]; compound 20000 nM): 71.5878; IC50 [5]: > 100000 nM; TMPRSS2 activity, Mean (Fig. 2a) ([6]; 0.05 nM): 96.4874; TMPRSS2 activity, Mean (Fig. 2a) ([6]; 0.5 nM): 92.0966; TMPRSS2 activity, Mean (Fig. 2a) ([6]; 5 nM): 92.5357; TMPRSS2 activity, Mean (Fig. 2a) ([6]; 50 nM): 77.2777; TMPRSS2 activity, Mean (Fig. 2a) ([6]; 500 nM): 26.4544; TMPRSS2 activity, Mean (Fig. 2a) ([6]; 5000 nM): 2.634; TMPRSS2 activity, Mean (Fig. 2a) ([6]; 50000 nM): 0.3293; TMPRSS2 activity, Mean (Fig. 2a) ([6]; 500000 nM): -0.8782; Ki [6]: 71.5 nM
CC(=O)N[C@H](Cc1c[nH]cn1)C(=O)N1CCC[C@H]1C(=O)NC(CCCNC(=N)N)C(=O)c1nc2ccccc2s1 (stereo partly drawn)	1.5	14 nM	4090 nM	92.1132	96.2801	100.447	98.8093	77.3813	11.3095	29.8	271 nM	105.501	95.759	83.4395	44.4825	9.5185	103.059	104.757	105.293	90.3664	Selectivity index Thrombin [2]: 449; factor Xa activity, Mean (Fig. 2d) ([3]; 0.02 nM): 104.019; factor Xa activity, Mean (Fig. 2d) ([3]; 100000 nM): 11.0119; SARS-CoV-2 spike driven entry, Mean (0 nM = 100) ([4]; compound 100000 nM): 2.14; IC50 [4]: 3240 nM; SARS-CoV-2 infection, Mean (0 nM = 100) ([5]; compound 20000 nM): 28.2625; SARS-CoV-2 infection, Mean (0 nM = 100) ([5]; compound 100000 nM): -0.3568; IC50 [5]: 12600 nM; TMPRSS2 activity, Mean (Fig. 2a) ([6]; 0.05 nM): 92.713; TMPRSS2 activity, Mean (Fig. 2a) ([6]; 0.5 nM): 90.8072; TMPRSS2 activity, Mean (Fig. 2a) ([6]; 5 nM): 77.0179; TMPRSS2 activity, Mean (Fig. 2a) ([6]; 50 nM): 35.2018; TMPRSS2 activity, Mean (Fig. 2a) ([6]; 500 nM): 5.269; TMPRSS2 activity, Mean (Fig. 2a) ([6]; 5000 nM): -0.1121; TMPRSS2 activity, Mean (Fig. 2a) ([6]; 50000 nM): 4.484e-8; TMPRSS2 activity, Mean (Fig. 2a) ([6]; 500000 nM): -2.018; Ki [6]: 9.1 nM

Like-named read-outs stand apart in the source and are kept apart here.
